Reference: PubChem BioAssay AID504761 (Drosophila RNAi Screening Center, 2011)

Screen: 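Insect host genes that dengue virus relies on to spread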 (primary screen)
Cells: D.Mel-2 cells from Drosophila
Reagent: long dsRNA against Drosophila genes
Challenge: infection with dengue virus type 2; dose and infection time not stated
Measurement: 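Per well on two replicate plates, imaging gave the percent of cells positive for viral envelope protein, ranked by infection, and a nuclear count of cells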
Direction: infection score: higher = more virus-infected cells; cell count: higher = more cells in the well
Rule for the call: 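Very low infection ranking in both replicate wells (chance probability at most 0.065), then a retest showing infection dropped 1.5-fold or more at p below 0.05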
Meaning of the calls: active = confirmed: knock-down lowers infection; inactive = not picked or not confirmed
The deposit covers about 22,000 reagents; below is an unselected part of those that have a named target and a result. In the full data, 116 (0.52%) were called active. 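Calls depend on retest data that are not deposited; infection was ranked per plate without normalising between plates; the unit of the infection score is not given.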 The raw values are shown without normalisation. Entries without a mark were called inactive. Names joined by + are all predicted targets of the reagent. The record does not give: the amount of reagent, the time to read-out.

gene | DRSC id | infection score, replicate 1 | infection score, replicate 2 | cell count, replicate 1 | cell count, replicate 2
salt | DRSC15427 | 1.17 | 1.55 | 6079 | 6143
salt | DRSC25514 | 5.04 | 2.75 | 6129 | 6186
fln | DRSC11346 | 2.64 | 19.6 | 6750 | 5136
fln | DRSC28670 | 13.9 | 1.72 | 4512 | 754
CG3690 | DRSC18170 | 3.21 | 12.9 | 6004 | 5531
CG3690 | DRSC18641 | 9.38 | 8.02 | 5088 | 6099
CG2685 | DRSC18463 | 21.7 | 14.1 | 3511 | 4216
CG2685 | DRSC27295 | 31.6 | 40.2 | 5712 | 5154
CG18249 | DRSC15318 | 7.26 | 8.03 | 6900 | 6870
meng | DRSC02134 | 1.11 | 2.38 | 6500 | 6769
meng | DRSC28743 | 21.4 | 25.3 | 5690 | 4544
CG34347 | DRSC14305 | 2.69 | 3.57 | 782 | 6722
CG34347 | DRSC23044 | 1.2 | 20.9 | 5567 | 3088
CG34347 | DRSC24430 | 1.55 | 1.52 | 6373 | 6497
tefu | DRSC16060 | 13.8 | 27.7 | 5591 | 4507
CG14074 | DRSC10079 | 9.18 | 12.8 | 6197 | 6446
CG14074 | DRSC29481 | 2.94 | 18.5 | 1053 | 5081
CG11686 | DRSC14350 | 1.07 | 5.79 | 6615 | 7131
CG31097 | DRSC14666 | – | 5.7 | 394 | 6787
CG4914 | DRSC10458 | 0.49 | 1.6 | 6135 | 6075
ppk12 | DRSC04086 | – | 2.27 | 481 | 837
Dh44 | DRSC12747 | 1.58 | 4.13 | 5696 | 5519
Dh44 | DRSC16409 | 3.66 | 8.17 | 6113 | 6062
Lint-O | DRSC18468 | 9.51 | 2.58 | 5645 | 1397
Lint-O | DRSC23789 | 2.22 | 6.06 | 5669 | 5912
Sec3 | DRSC10384 | 7.88 | 5.96 | 5849 | 6388
Jheh3 | DRSC06533 | 3.81 | 3.39 | 7122 | 6460
Jheh3 | DRSC29140 | 14 | 19.3 | 2703 | 4543
CG13311 | DRSC09982 | 0.74 | 2.37 | 6595 | 5941
CG13875 | DRSC08345 | 4.05 | 5.36 | 6427 | 6230
Trf | DRSC03462 | 9.48 | 6.28 | 3883 | 5732
CG4629 | DRSC00659 | 7.77 | 1.72 | 6452 | 6562
CG4629 | DRSC27952 | 11.5 | 4.26 | 6498 | 5471
Femcoat | DRSC18061 | 4.51 | 4.49 | 6503 | 6417
Femcoat | DRSC28792 | 24.4 | 5.62 | 5611 | 4164
CG15577 | DRSC18065 | 7.9 | 0.47 | 6205 | 423
ZAP3 | DRSC17852 | 6.08 | 5.58 | 5892 | 6182
ZAP3 | DRSC17853 | 2.02 | 5.5 | 5743 | 6214
ZAP3 | DRSC18249 | 15.4 | 12.1 | 3007 | 3748
mRpS29 | DRSC04398 | 9.15 | 20.5 | 5696 | 5518
mRpS29 | DRSC27790 | 14.8 | 26.7 | 6332 | 2727
Daao1 | DRSC06131 | 5.55 | 8.27 | 6744 | 5878
CG8461 | DRSC16424 | 4.95 | 5.73 | 6444 | 6565
CG33341 | DRSC22887 | 2.46 | 19.3 | 5777 | 5716
CG33341 | DRSC24893 | 11.6 | 7.49 | 6771 | 5457
Spn28Db | DRSC22033 | 3.16 | 2.6 | 6210 | 5780
emc | DRSC23238 | 1.28 | 6.69 | 7194 | 6905
emc | DRSC28439 | 8.09 | 13.4 | 5612 | 5640
mtTFB1 + Ccdc56 | DRSC10809 | 1.69 | 7.32 | 6787 | 7390
RhoGAP100F | DRSC15409 | 4.89 | 1.09 | 5847 | 6444
RhoGAP100F | DRSC28096 | 9.97 | 32.9 | 6639 | 5657
CG31054 (retired record) + CG4849 | DRSC28625 | 16.9 | 17.8 | 6118 | 5692
Ugt49B2 | DRSC16049 | 12.6 | 9.27 | 5665 | 5956
Ugt49B2 | DRSC24548 | 6.07 | 16.4 | 2849 | 4987
ana2 | DRSC05952 | 20.7 | 11.7 | 6331 | 6891
ana2 | DRSC26549 | 3.25 | 2.98 | 6762 | 6890
NimC2 | DRSC01881 | 11.5 | – | 5830 | 590
CG42245 + MEP-1 | DRSC07993 | – | 1.98 | – | 6025
CG42245 + MEP-1 | DRSC08274 | 3.7 | 10.8 | 6544 | 6726
CG42245 + MEP-1 | DRSC21460 | 4.75 | 6.85 | 4820 | 4234
CG42245 + MEP-1 | DRSC29362 | 3.95 | 6.73 | 885 | 5035

No new results follow: entries from further up.
gene | DRSC id | infection score, replicate 1 | infection score, replicate 2 | cell count, replicate 1 | cell count, replicate 2
tefu | DRSC16060 | 13.8 | 27.7 | 5591 | 4507
CG14074 | DRSC10079 | 9.18 | 12.8 | 6197 | 6446
CG14074 | DRSC29481 | 2.94 | 18.5 | 1053 | 5081
CG11686 | DRSC14350 | 1.07 | 5.79 | 6615 | 7131
CG31097 | DRSC14666 | – | 5.7 | 394 | 6787
CG4914 | DRSC10458 | 0.49 | 1.6 | 6135 | 6075
ppk12 | DRSC04086 | – | 2.27 | 481 | 837
Dh44 | DRSC12747 | 1.58 | 4.13 | 5696 | 5519
Dh44 | DRSC16409 | 3.66 | 8.17 | 6113 | 6062
Lint-O | DRSC18468 | 9.51 | 2.58 | 5645 | 1397
